Results of unrelated studies side by side (data: NIAID ChemDB).

All rows: whole-cell or culture tests; species: Mycobacterium tuberculosis

Blank or dashed fields: not listed here.

smiles,strain,endpoint,method,cell line,tested at,value
N#CCc1nc2c(s1)C(=O)c1ccccc1C2=O,H37Rv,MIC,-,VERO,-,3.13 µg/mL
COc1cc(/C=N/NC(=O)c2sc3ccc(Oc4ccccc4)cc3c2Cl)ccc1O,H37Rv,inhibition,-,-,6.25 µg/mL,7%
CCCCCCCC(CCCCCCC)CC(=O)O,-,MIC,-,-,-,>1000 µM
Nc1ccc(N=Nc2ccc(O)cc2)c(N)n1,H37Rv,MIC bound,BACTEC,-,-,>12.5 µg/mL
CC(=O)OC1CC(c2ccccc2)N(c2ccccc2)O1,H37Rv,inhibition,-,-,6.25 µg/mL,59%
CCCCCCCCCCCCCCCCNC(=O)C1=CCN(C)[C@@H]([C@H](O[C@@H]2O[C@H](CN)[C@@H](O)[C@H]2O)[C@H]2O[C@@H](n3ccc(=O)[nH]c3=O)[C@H](O)[C@@H]2O)C(=O)N1C,Kurono,MIC,-,-,-,1.56 µg/mL
CC(=O)OC1CC(c2cccc(Br)c2)N(c2ccccc2)O1,H37Rv,inhibition,-,-,6.25 µg/mL,91%
CC(=O)Nc1ccc(N=Nc2ccc(N)c3cc(S(=O)(=O)O)ccc23)cc1,H37Rv,MIC bound,BACTEC,-,-,>12.5 µg/mL
O=C(NN1CCN(c2cc3c(cc2F)c(=O)c(C(=O)O)cn3C2CC2)CC1)c1cccc([N+](=O)[O-])c1,H37Rv,MIC90,fluorescence,-,-,>50 µM
Cc1ccc(N=Nc2c(O)c3ccccc3[nH]c2=O)c(S(=O)(=O)N(C)C)c1,H37Rv,MIC,BACTEC,-,-,≥12.5 µg/mL
CCCCCCCCCN1C(=O)C(=O)c2cccc(-c3ccccc3)c21,H37Ra,MIC,-,-,-,≤20 µg/mL
O=C(COc1cnccn1)N/N=c1\scc(-c2ccccc2)n1-c1ccc(Cl)cc1Cl,H37Rv,MIC,-,-,-,12.4 µg/mL
NC(Cn1ccc(=O)c(O)c1)C(=O)O,H37Rv,MIC bound,BACTEC,-,-,>12.8 µg/mL
CC(=O)OCC1CC(c2ccc(Cl)cc2)N(c2ccccc2)O1,H37Rv,inhibition,-,-,6.25 µg/mL,inactive
O=C1C(=O)N(CCN2CCN(Cc3ccccc3)CC2)c2ccc(-c3ccccc3)cc21,H37Ra,MIC,-,-,-,≤20 µg/mL
Cc1nn2c(=O)c([N+](=O)[O-])c(/C=C/c3ccccc3)nc2s1,H37Rv,MIC bound,resazurin,-,-,>6.25 µg/mL
COC(=O)N[C@@H]1[C@H](C)O[C@@H](OC2C/C=C(\C)[C@H]3C=C[C@H]4[C@H](O)[C@H](C)C[C@@H](C)[C@@H]4[C@@]3(C)/C(O)=C3/C(=O)OC4(C[C@H](C)C(CO)=C[C@H]4/C=C\2C)C3=O)C[C@@]1(C)N,H37Ra,MIC90,MTT,-,-,>100 µM
COc1nc(C(=O)NNC(=O)c2nc(OC)c3ccccc3c2-c2ccccc2)c(-c2ccccc2)c2ccccc12,H37Rv,inhibition,resazurin,-,6.25 µg/mL,-13%
CN(C)CCNc1cc(C(F)(F)F)nc2c(C(F)(F)F)cccc12,-,MIC,-,-,-,31 µM
O=C(Cc1cccc(Br)c1)N1COC(c2sc3ccc(Oc4ccccc4)cc3c2Cl)=N1,H37Rv,inhibition,-,-,6.25 µg/mL,0%
c1ccc(CN2CCC3(CC2)OCCc2sccc23)cc1,H37Rv,EC50,-,-,-,5 µM
NNC(=O)c1ccncc1,H37Rv,MIC,visual reading / absorbance,-,-,6.2 µM
Cc1nc(Nc2ccc([N+](=O)[O-])cc2)sc1C(/C=C/c1ccc(N(C)C)cc1)=N/NC(=O)c1ccccc1,H37Rv,inhibition,resazurin,-,6.25 µg/mL,-90%
c1cc2c(s1)CCOC21CCN(C2CCCCC2)CC1,H37Rv,EC50,-,-,-,>100 µM
CC(C)CCC[C@H](C)CC(=O)O,-,MIC,-,-,-,>1000 µM
O=C(N/N=C/c1cccc(Br)c1)c1sc2ccc(Oc3ccccc3)cc2c1Cl,H37Rv,inhibition,-,-,6.25 µg/mL,0%
C[C@H](CCC(=O)O)[C@H]1CC[C@H]2[C@@H]3CC[C@@H]4C[C@H](O)CC[C@]4(C)[C@H]3C[C@H](O)[C@]12C,-,MIC,-,-,-,>1000 µM
CC(C)n1c(-c2ccccc2)cs/c1=N\NC(=O)COc1cnccn1,H37Rv,MIC,-,-,-,10 µg/mL
CC(=O)OC1CC(c2ccc([N+](=O)[O-])cc2)N(c2ccccc2)O1,H37Rv,inhibition,-,-,6.25 µg/mL,99%
Clc1c2c(c(Cl)c3c1=Nc1ccc4ccccc4c1S3)=Nc1ccc3ccccc3c1S2,H37Rv,inhibition,BACTEC,-,12.5 µg/mL,-5%
CCCCCCCN1C(=O)C(=O)c2cccc(-c3ccccc3)c21,H37Ra,MIC,-,-,-,≤20 µg/mL
CN(c1ccc(OC(F)(F)F)cc1)N1CCN(c2cc3c(cc2F)c(=O)c(C(=O)O)cn3C2CC2)CC1,H37Rv,MIC90,fluorescence,-,-,>50 µM
CN(C)c1cc(C(F)(F)F)nc2c(C(F)(F)F)cccc12,-,MIC,-,-,-,>128 µM
Cc1ccc(-c2cs/c(=N\NC(=O)COc3cnccn3)n2-c2ccc(Cl)cc2Cl)cc1,H37Rv,MIC,-,-,-,21 µg/mL
C[Si]1(C)[Si](C)(C)[Si](C)(C)[Si](C)(C)[Si](C)(C)[Si]1(C)C,H37Rv,inhibition,BACTEC,-,128 µg/mL,100%
O=C(O)c1cn(C2CC2)c2cc(N3CCNCC3)c(F)cc2c1=O,H37Rv,MIC90,fluorescence,-,-,0.34 µM
O=C1C=CC2=Nc3ccccc3CCC2=C1,H37Rv,MIC,BACTEC,-,-,12.5 µg/mL
Cc1ccc(-c2cc(CN3CCSCC3)c(C)n2-c2ccc(F)cc2)cc1,-,MIC,-,-,-,3 µg/mL
O=C(c1ccc(Br)cc1)N1CCC2(CC1)OCCc1sccc12,H37Rv,EC50,-,-,-,>100 µM
CCCCCCCCCCCCN1C(=O)C(=O)c2cccc(-c3ccccc3)c21,H37Ra,MIC,-,-,-,≤20 µg/mL
CCc1nc2ccc(C)cc2n1CCCCOc1ccccc1,H37Rv-LP,MIC90,turbidity / fluorescence,-,-,0.34 µM
O=C(N/N=C/c1ccccc1)c1sc2ccc(Oc3ccccc3)cc2c1Cl,H37Rv,inhibition,-,-,6.25 µg/mL,0%
CN/N=C/c1cc(C(F)(F)F)nc2c(C(F)(F)F)cccc12,-,MIC,-,-,-,>128 µM
CCc1nc2ccccc2n1CCCCSc1nc(-c2ccccc2)cs1,H37Rv-MA cydC::aph,MIC90,turbidity / fluorescence,-,-,0.62 µM
O=C1N(c2nncs2)CCN1[N+](=O)[O-],CS-R,MIC,-,-,-,1.6 µg/mL
CO/N=C(\C(=O)N[C@@H]1C(=O)N2C(C(=O)O)=C(COC(C)=O)CS[C@H]12)c1csc(N)n1,16 strains,MIC,-,-,-,200–1600 µg/mL
COc1c(N2CCNC(C)C2)c(F)cc2c(=O)c(C(=O)O)cn(C3CC3)c12,H37Rv,MIC,-,-,-,0.1 µg/mL
CC(=O)OCC1CC(c2cccc(Br)c2)N(c2ccccc2)O1,H37Rv,inhibition,-,-,6.25 µg/mL,inactive
O=C(O)c1ccc(CN2CCCC[C@H]2[C@@H](O)c2cc(C(F)(F)F)nc3c(C(F)(F)F)cccc23)cc1,-,MIC,-,-,-,94 µM
O=C1Cc2cc(C3CCCCC3)ccc2N1CCC1CCCCC1,H37Ra,MIC,-,-,-,≤20 µg/mL
COc1ccc(C2C(Cl)C(=O)C2NC(=O)c2sc3ccc(Oc4ccccc4)cc3c2Cl)cc1OC,H37Rv,inhibition,-,-,6.25 µg/mL,0%
CCCCn1c(-c2ccc(C)cc2)cs/c1=N\NC(=O)COc1cnccn1,H37Rv,MIC,-,-,-,8.7 µg/mL
CC(C)N=c1cc2n(-c3ccc(Cl)cc3)c3ccccc3nc-2cc1Nc1ccc(Cl)cc1,H37Rv-MA,MIC90,turbidity / fluorescence,-,-,0.46 µM
COc1cccc(/C=N/NC(=O)c2sc3ccc(Oc4ccccc4)cc3c2Cl)c1,H37Rv,inhibition,-,-,6.25 µg/mL,0%
COc1cc(CN2CCC3(CC2)OCCc2sccc23)ccc1O,H37Rv,EC50,-,-,-,>100 µM
O=C(NN1CCN(c2cc3c(cc2F)c(=O)c(C(=O)O)cn3C2CC2)CC1)c1ccc(B(O)O)cc1,H37Rv,MIC90,fluorescence,-,-,5.58 µM
O=C(COc1cnccn1)N/N=c1\scc(-c2ccc(Br)cc2)n1-c1ccc(Cl)cc1Cl,H37Rv,MIC,-,-,-,10.5 µg/mL
CN(C)C1C(=O)C(C(=O)NCNC(CCS(C)=O)C(=O)[O-])=C(O)C2(O)C(=O)C3=C(O)c4c(O)cccc4C(C)(O)C3CC12.[Na+],H37Rv,inhibition,BACTEC,-,12.5 µg/mL,20%
Cc1nc2ccc(Cl)cn2c1C(=O)NC1CCCCCCC1,H37Rv,MIC90,resazurin,-,-,>200 µM
Nc1nc(C(=O)O)cc(=O)[nH]1,H37Rv,MIC bound,BACTEC,-,-,>12.5 µg/mL
O=C(NCCCC1CCCCC1)c1c(C2CCCCC2)nc2cc(Cl)ccn12,H37Rv,MIC90,resazurin,-,-,>162 µM
CCCCCCN1C(=O)C(=O)c2cccc(-c3ccccc3)c21,H37Rv,MIC,-,-,-,≤20 µg/mL
O=C(N/N=C/c1cccs1)c1ccncc1,-,inhibition,BACTEC,-,0.5 µM,99%
O=C(Cc1ccccc1[N+](=O)[O-])N1COC(c2sc3ccc(Oc4ccccc4)cc3c2Cl)=N1,H37Rv,inhibition,-,-,6.25 µg/mL,3%
CCc1nc2ccc(C)cc2n1CCCCNc1ccccc1,H37Rv-MA cydC::aph,MIC90,turbidity / fluorescence,-,-,0.17 µM
O=C(c1ccccc1O)c1cc(-c2ncc3c(=O)c4ccccc4oc3n2)c(-c2ccccc2O)nc1O,H37Rv,inhibition,BACTEC,-,12.5 µg/mL,30%
Clc1ccc(CN2CCC3(CC2)OCCc2sccc23)cc1,H37Rv,EC50,-,-,-,1.25 µM
COC(=O)N[C@@H]1[C@H](C)O[C@@H](OC2C/C=C(\C)[C@H]3C=C[C@H]4[C@H](OC5C[C@@H](O[C@@H]6C[C@@H](O)[C@@H](O)[C@H](C)O6)[C@@H](O)[C@H](C)O5)[C@H](C)C[C@@H](C)[C@@H]4[C@@]3(C)/C(O)=C3/C(=O)OC4(C[C@H](C)C(C)=C[C@H]4/C=C\2C)C3=O)C[C@@]1(C)[N+](=O)[O-],H37Ra,MIC90,MTT,-,-,1.4 µM
CO[C@H]1/C=C/O[C@@]2(C)Oc3c(C)c(O)c4c(O)c(c(/C=N/N5CCN(C)CC5)c(O)c4c3C2=O)NC(=O)/C(C)=C\C=C\[C@H](C)[C@H](O)[C@@H](C)[C@@H](O)[C@@H](C)[C@H](OC(C)=O)[C@@H]1C,H37Rv,EC50,-,-,-,0.02 µg/mL
COc1ccc(-c2cs/c(=N\NC(=O)COc3cnccn3)n2-c2ccc(Cl)cc2)cc1,H37Rv,MIC,-,-,-,11.6 µg/mL
CN(C)c1cccc(-c2cc(C(F)(F)F)nc3c(C(F)(F)F)cccc23)c1,-,MIC,-,-,-,>128 µM
NCc1ccccc1CC(=O)N[C@@H]1C(=O)N2C(C(=O)O)=C(CSc3nnnn3CC(=O)O)CS[C@H]12,16 strains,MIC,-,-,-,200–400 µg/mL
COc1ccc(C2C(Cl)C(=O)C2NC(=O)c2sc3ccc(Oc4ccccc4)cc3c2Cl)c(OC)c1OC,H37Rv,inhibition,-,-,6.25 µg/mL,10%
CC1N2C3(c4ccccc4)OC(c4ccccc4)(c4ccccc43)C12c1ccccc1,H37Rv,inhibition,BACTEC,-,12.5 µg/mL,2%
Oc1cc(Cl)ccc1Oc1ccc(Cl)cc1Cl,H37Rv,MIC,fluorescence,-,-,50 µg/mL
C=C(C)C(=O)O[C@H]1CC2=C[C@@H](C[C@@]3(C)O[C@H]3[C@H]3OC(=O)C(=C)[C@@H]31)OC2=O,H37Rv,inhibition,BACTEC,-,12.5 µg/mL,15%
c1cc2c(s1)CCOC21CCN(Cc2ccc3c(c2)OCO3)CC1,H37Rv,EC50,-,-,-,10 µM
COc1cc(NC(C)CCCN)c2ncccc2c1OC,H37Rv,inhibition,BACTEC,-,12.5 µg/mL,-3%
O=C(NC1CCCCCCC1)c1c(C2CCCCC2)nc2cc(Cl)ccn12,H37Rv,MIC90,resazurin,-,-,>168 µM
N#CCC(=O)N/N=C/C(O)C(O)C(O)C(O)C(=O)O,H37Rv,MIC,BACTEC,-,-,≥12.5 µg/mL
O=C(O)c1cn(C2CC2)c2cc(N3CCN(/N=C/c4ccc(Cl)cc4)CC3)c(F)cc2c1=O,H37Rv,MIC90,fluorescence,-,-,1.77 µM

A second listing of 4 rows from above:

smiles | strain | endpoint | method | cell line | tested at | value
O=C(COc1cnccn1)N/N=c1\scc(-c2ccccc2)n1-c1ccc(Cl)cc1Cl | H37Rv | MIC | - | - | - | 12.4 µg/mL
CCCCCCCC(CCCCCCC)CC(=O)O | - | MIC | - | - | - | >1000 µM
CCCCCCCN1C(=O)C(=O)c2cccc(-c3ccccc3)c21 | H37Ra | MIC | - | - | - | ≤20 µg/mL
COc1ccc(C2C(Cl)C(=O)C2NC(=O)c2sc3ccc(Oc4ccccc4)cc3c2Cl)cc1OC | H37Rv | inhibition | - | - | 6.25 µg/mL | 0%

MIC bound: limit read from a one-dose screen. Rows are shuffled and stem from different studies. "inactive" is the filed call at that dose; no cut-off is given. A number after MIC or MFC names an inhibition level or a share of isolates. ECn: concentration that inhibits the pathogen or its effect by n%. Two numbers with a dash give a range or band. Percent inhibition refers to the dose given; in toxicity tests it is the harm to the cells.